From patent US11608371 come the findings set out here.

The Kd is a measure of binding affinity in units of concentration.

The target in the assay is Protein A (Sensor Chip Protein A, Cytiva) (UniProt P38507). The assay can be described thus: SPR (Biacore 8K), Sensor Chip Protein A, kinetics affinity, 1:1 binding fit; Bedinvetmab made in CHO-s.

The substance Bedinvetmab (antibody) displayed a Kd of 10 pM. This counts as picomolar.
